T1: TAT-276-292 peptide (TAT domain and GBV-C E2 aa 276-292)
T1 chain: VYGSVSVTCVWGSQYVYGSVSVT

T2: TAT-SCR peptide (TAT domain and the amino acids of E2 276-292 in a scrambled order)
T2 chain: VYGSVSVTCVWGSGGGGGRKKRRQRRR

B1: Lck of the Lck kinase enzyme system (Promega) (protein)
chain: MGCGCSSHPEDDWMENIDVCENCHYPIVPLDGKGTLLIRNGSEVRDPLVTYEGSNPPASPLQDNLVIALHSYEPSHDGDLGFEKGEQLRILEQSGEWWKAQSLTTGQEGFIPFNFVAKANSLEPEPWFFKNLSRKDAERQLLAPGNTHGSFLIRESESTAGSFSLSVRDFDQNQGEVVKHYKIRNLDNGGFYISPRITFPGLHELVRHYTNASDGLCTRLSRPCQTQKPQKPWWEDEWEVPRETLKLVERLGAGQFGEVWMGYYNGHTKVAVKSLKQGSMSPDAFLAEANLMKQLQHQRLVRLYAVVTQEPIYIITEYMENGSLVDFLKTPSGIKLTINKLLDMAAQIAEGMAFIEERNYIHRDLRAANILVSDTLSCKIADFGLARLIEDNEYTAREGAKFPIKWTAPEAINYGTFTIKSDVWSFGILLTEIVTHGRIPYPGMTNPEVIQNLERGYRMVRPDNCPEELYQLMRLCWKERPEDRPTFDYLRSVLEDFFTATEGQYQPQP
B2: Lymphocyte specific protein tyrosine kinase (Lck), endogenous, in Jurkat cell lysate (protein)
chain: GCGCSSHPEDDWMENIDVCENCHYPIVPLDGKGTLLIRNGSEVRDPLVTYEGSNPPASPLQDNLVIALHSYEPSHDGDLGFEKGEQLRILEQSGEWWKAQSLTTGQEGFIPFNFVAKANSLEPEPWFFKNLSRKDAERQLLAPGNTHGSFLIRESESTAGSFSLSVRDFDQNQGEVVKHYKIRNLDNGGFYISPRITFPGLHELVRHYTNASDGLCTRLSRPCQTQKPQKPWWEDEWEVPRETLKLVERLGAGQFGEVWMGYYNGHTKVAVKSLKQGSMSPDAFLAEANLMKQLQHQRLVRLYAVVTQEPIYIITEYMENGSLVDFLKTPSGIKLTINKLLDMAAQIAEGMAFIEERNYIHRDLRAANILVSDTLSCKIADFGLARLIEDNEYTAREGAKFPIKWTAPEAINYGTFTIKSDVWSFGILLTEIVTHGRIPYPGMTNPEVIQNLERGYRMVRPDNCPEELYQLMRLCWKERPEDRPTFDYLRSVLEDFFTATEGQYQPQP

Key:
[1] = biological target: T1, TAT-276-292 peptide (TAT domain and …)
[2] = biological target: T2, TAT-SCR peptide (TAT domain and the …)
[3] = biological target: GBV-C E2 protein ([…]) with C-terminal his-tag, stably expressed in Jurkat (tet-off) cells

| Protein | Lck mediated phosphorylation of peptide (Lck kinase enzyme system, RLU) [1] | Lck mediated phosphorylation of peptide (Lck kinase enzyme system, RLU) [2] | Lck activation (phosphorylation of Lck Y394) following TCR engagement with anti-CD3, immunoblot [3] |
| --- | --- | --- | --- |
| B1 | A synthetic peptide containing this motif (TAT-276-292) also served as a Lck substrate in vitro compared to a control peptide (TAT-SCR) | Lck mediated phosphorylation of TAT-Y87 and TAT-276-292 peptide was detected in dose-dependent manner compared to TAT-Y87 peptide synthetically phosphorylated (TAT-Y87PO4) or the TAT-276-292 peptide synthesized in a scrambled order TAT-SCR | – |
| B2 | – | – | Lck activation, as measured by phosphorylation of Y394, was reduced in Jurkat cells expressing E2 protein compared to FS controls |
